From paper PMC5543684

Tested on: C[C@H]1O[C@H](OP(=O)(O)OP(=O)(O)OC[C@H]2O[C@@H](n3cnc4c(=O)[nH]c(N)nc43)[C@H](O)[C@@H]2O)[C@@H](O)[C@@H](O)[C@@H]1N
Assay: purified protein
Details: pH 8.0

(Brucella melitensis bv. 1 str. 16M) showed a Km of 184 ± 8 µM.
